Paper PMC4227228, “Preparation and Evaluation of Human-Murine Chimeric Antibody against Protective Antigen of Bacillus anthracis” (International Journal of Molecular Sciences, 2014)

Molecular target: Anthrax protective antigen (PA83) (Bacillus anthracis, strain , UniProt P13423)
Experiment: ELISA

B1: human/murine chimeric PA6-Fab (Fab, V domains shown)
VH: DVQLQESGPGLVKPSQSLSLTCTVTGYSITSDYAWNWIRQFPGNKLEWMGYISYSGSTSYNPSLKSRISIYRDTSKNQFFLQLNSVTIEDTATYYCARRDYGYLTWFAYWGQGTLVTVSA
VL: DILLTQSPAIMSASPGEKVTMTCSASSSISYMHWYQQKPGTSPKRWIYDTSKLASGVPARFSGSGSGTSYSLTISSMEAEDAATYYCHQRSSWTFGGGTKLEMK
notes: also called chimeric Fab antibody
B1 showed a Ka of 5.07e-09 M⁻¹ and a Kd of 1.76 nM.
